{"source": "PubChem BioAssay AID1259414, Drosophila RNAi Screening Center – 2018", "aim": "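Fly genes that alter Wolbachia amount inside host cells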 (primary screen)", "cell system": "Drosophila JW18 cells infected with Wolbachia", "knock-down reagent": "long dsRNA against Drosophila genes, 0.25 µg dsRNA per well of a 384-well plate", "timing": "5 days", "treatment": "cells persistently infected with Wolbachia before knock-down; no added drug", "detection": "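Imaged fluorescence in situ signal for Wolbachia 23S rRNA per DAPI-counted host cell, given as a robust z-score within each plate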", "reading the numbers": "Wolbachia per cell robust z: higher = more Wolbachia per host cell than the plate typical", "hit rule": "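Hit when robust z is 1.5 or more, or -1.5 or less, in at least two of three replicates; excludes dsRNAs with several or no targets, genes not expressed in JW18 and well A1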", "note": "The deposit covers about 24,000 reagents; below is a random part of those that have a named target and a result. Over the whole deposit, about 1,210 (5%) got an active call. 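Inactive calls also include excluded dsRNAs with several or no targets, genes unexpressed in JW18, and well A1, regardless of score.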 A plus sign joins genes that one reagent is predicted to hit."}
{"Target gene": "CG13739", "DRSC id": "DRSC23200", "Wolbachia per cell robust z, rep 1": -0.364, "Wolbachia per cell robust z, rep 2": -0.068, "Wolbachia per cell robust z, rep 3": 0.261, "Call": "inactive"}
{"Target gene": "CG13739", "DRSC id": "DRSC28741", "Wolbachia per cell robust z, rep 1": 0.436, "Wolbachia per cell robust z, rep 2": 0.177, "Wolbachia per cell robust z, rep 3": 0.218, "Call": "inactive"}
{"Target gene": "Qsox3", "DRSC id": "DRSC16096", "Wolbachia per cell robust z, rep 1": 0.783, "Wolbachia per cell robust z, rep 2": 0.361, "Wolbachia per cell robust z, rep 3": -0.408, "Call": "inactive"}
{"Target gene": "Rip11", "DRSC id": "DRSC20000", "Wolbachia per cell robust z, rep 1": 0.662, "Wolbachia per cell robust z, rep 2": -0.846, "Wolbachia per cell robust z, rep 3": 0.4, "Call": "inactive"}
{"Target gene": "Rip11", "DRSC id": "DRSC29902", "Wolbachia per cell robust z, rep 1": -0.699, "Wolbachia per cell robust z, rep 2": -0.281, "Wolbachia per cell robust z, rep 3": 0.216, "Call": "inactive"}
{"Target gene": "hts", "DRSC id": "DRSC28097", "Wolbachia per cell robust z, rep 1": 1.44, "Wolbachia per cell robust z, rep 2": -0.769, "Wolbachia per cell robust z, rep 3": -0.471, "Call": "inactive"}
{"Target gene": "hts", "DRSC id": "DRSC38863", "Wolbachia per cell robust z, rep 1": 0.221, "Wolbachia per cell robust z, rep 2": 0.595, "Wolbachia per cell robust z, rep 3": -0.718, "Call": "inactive"}
{"Target gene": "hts", "DRSC id": "DRSC40689", "Wolbachia per cell robust z, rep 1": -0.464, "Wolbachia per cell robust z, rep 2": 0.993, "Wolbachia per cell robust z, rep 3": 0.566, "Call": "inactive"}
{"Target gene": "Pxd", "DRSC id": "DRSC16805", "Wolbachia per cell robust z, rep 1": 0.969, "Wolbachia per cell robust z, rep 2": 0.696, "Wolbachia per cell robust z, rep 3": -4.16, "Call": "inactive"}
{"Target gene": "Acbp1", "DRSC id": "DRSC03093", "Wolbachia per cell robust z, rep 1": 0.393, "Wolbachia per cell robust z, rep 2": -0.346, "Wolbachia per cell robust z, rep 3": -1.44, "Call": "inactive"}
{"Target gene": "Acbp1", "DRSC id": "DRSC29718", "Wolbachia per cell robust z, rep 1": -0.295, "Wolbachia per cell robust z, rep 2": 1.21, "Wolbachia per cell robust z, rep 3": -0.506, "Call": "inactive"}
{"Target gene": "slp1", "DRSC id": "DRSC00835", "Wolbachia per cell robust z, rep 1": 0.0078, "Wolbachia per cell robust z, rep 2": -0.54, "Wolbachia per cell robust z, rep 3": 1.03, "Call": "inactive"}
{"Target gene": "slp1", "DRSC id": "DRSC24204", "Wolbachia per cell robust z, rep 1": 0.847, "Wolbachia per cell robust z, rep 2": 0.253, "Wolbachia per cell robust z, rep 3": 0.00152, "Call": "inactive"}
{"Target gene": "CG10651", "DRSC id": "DRSC02086", "Wolbachia per cell robust z, rep 1": -4.7, "Wolbachia per cell robust z, rep 2": -0.139, "Wolbachia per cell robust z, rep 3": -8.01, "Call": "inactive"}
{"Target gene": "Alg3", "DRSC id": "DRSC04700", "Wolbachia per cell robust z, rep 1": -0.572, "Wolbachia per cell robust z, rep 2": -1.11, "Wolbachia per cell robust z, rep 3": -5.19, "Call": "inactive"}
{"Target gene": "Blimp-1", "DRSC id": "DRSC10496", "Wolbachia per cell robust z, rep 1": -1.55, "Wolbachia per cell robust z, rep 2": -0.945, "Wolbachia per cell robust z, rep 3": -0.275, "Call": "inactive"}
{"Target gene": "Blimp-1", "DRSC id": "DRSC24305", "Wolbachia per cell robust z, rep 1": -1.58, "Wolbachia per cell robust z, rep 2": 0.00388, "Wolbachia per cell robust z, rep 3": 0.3, "Call": "inactive"}
{"Target gene": "Ance", "DRSC id": "DRSC01865", "Wolbachia per cell robust z, rep 1": -0.559, "Wolbachia per cell robust z, rep 2": 1.31, "Wolbachia per cell robust z, rep 3": 0.309, "Call": "inactive"}

Ordered by “Wolbachia per cell robust z, rep 3” (ascending): 3 of the entries above.
{"Target gene": "CG10651", "DRSC id": "DRSC02086", "Wolbachia per cell robust z, rep 1": -4.7, "Wolbachia per cell robust z, rep 2": -0.139, "Wolbachia per cell robust z, rep 3": -8.01, "Call": "inactive"}
{"Target gene": "slp1", "DRSC id": "DRSC24204", "Wolbachia per cell robust z, rep 1": 0.847, "Wolbachia per cell robust z, rep 2": 0.253, "Wolbachia per cell robust z, rep 3": 0.00152, "Call": "inactive"}
{"Target gene": "slp1", "DRSC id": "DRSC00835", "Wolbachia per cell robust z, rep 1": 0.0078, "Wolbachia per cell robust z, rep 2": -0.54, "Wolbachia per cell robust z, rep 3": 1.03, "Call": "inactive"}

Next records follow.
{"Target gene": "l(3)80Fg", "DRSC id": "DRSC21645", "Wolbachia per cell robust z, rep 1": 0.178, "Wolbachia per cell robust z, rep 2": -0.0804, "Wolbachia per cell robust z, rep 3": 0.392, "Call": "inactive"}
{"Target gene": "l(3)80Fg", "DRSC id": "DRSC22171", "Wolbachia per cell robust z, rep 1": 1.19, "Wolbachia per cell robust z, rep 2": -0.522, "Wolbachia per cell robust z, rep 3": -0.595, "Call": "inactive"}
{"Target gene": "l(3)80Fg", "DRSC id": "DRSC38565", "Wolbachia per cell robust z, rep 1": 0.774, "Wolbachia per cell robust z, rep 2": 0.624, "Wolbachia per cell robust z, rep 3": -0.674, "Call": "inactive"}
{"Target gene": "Mal-A1", "DRSC id": "DRSC07461", "Wolbachia per cell robust z, rep 1": 0.0235, "Wolbachia per cell robust z, rep 2": 0.102, "Wolbachia per cell robust z, rep 3": -5.96, "Call": "inactive"}
{"Target gene": "Mal-A1", "DRSC id": "DRSC29096", "Wolbachia per cell robust z, rep 1": -1.25, "Wolbachia per cell robust z, rep 2": -2.32, "Wolbachia per cell robust z, rep 3": 0.0454, "Call": "inactive"}
{"Target gene": "CG32189 + CG32188", "DRSC id": "DRSC28810", "Wolbachia per cell robust z, rep 1": -1.03, "Wolbachia per cell robust z, rep 2": -0.533, "Wolbachia per cell robust z, rep 3": 0.341, "Call": "inactive"}
{"Target gene": "CecB", "DRSC id": "DRSC16605", "Wolbachia per cell robust z, rep 1": 0.64, "Wolbachia per cell robust z, rep 2": 0.292, "Wolbachia per cell robust z, rep 3": -6.05, "Call": "inactive"}
{"Target gene": "mthl10", "DRSC id": "DRSC08504", "Wolbachia per cell robust z, rep 1": -2.84, "Wolbachia per cell robust z, rep 2": -0.647, "Wolbachia per cell robust z, rep 3": 0.174, "Call": "inactive"}
{"Target gene": "mthl10", "DRSC id": "DRSC08505", "Wolbachia per cell robust z, rep 1": 0.217, "Wolbachia per cell robust z, rep 2": -3.64, "Wolbachia per cell robust z, rep 3": -2.38, "Call": "active"}
{"Target gene": "mthl10", "DRSC id": "DRSC39158", "Wolbachia per cell robust z, rep 1": -2.82, "Wolbachia per cell robust z, rep 2": 0.635, "Wolbachia per cell robust z, rep 3": -1.4, "Call": "inactive"}
{"Target gene": "CG42487 + CG4884", "DRSC id": "DRSC40595", "Wolbachia per cell robust z, rep 1": -2.6, "Wolbachia per cell robust z, rep 2": -2.7, "Wolbachia per cell robust z, rep 3": -1.71, "Call": "inactive"}
{"Target gene": "CG6023", "DRSC id": "DRSC19970", "Wolbachia per cell robust z, rep 1": -5.08, "Wolbachia per cell robust z, rep 2": -0.368, "Wolbachia per cell robust z, rep 3": 0.37, "Call": "inactive"}
